Pooled drug test results. Numbers come from NIAID ChemDB, via PubChem.

Shared fields: tests in culture; agent: Herpes simplex virus 1; cells: VERO; measure: EC50

Blank or dashed fields: not listed here. ECn is the concentration giving n% inhibition of infection, replication or growth. Rows are shuffled and stem from different studies.

structure,strain,read by,result
Nc1ncnc2c1ncn2[C@@H]1O[C@H](CO)C[C@@H]1O,KOS,cytopathic effect,21.6 µg/mL
C[C@H]1O[C@@H](O[C@H]2CC[C@@]3(C)[C@H](CC[C@@H]4[C@@H]3C[C@@H](O)[C@]3(C)[C@@H](C5=CC(=O)OC5)CC[C@]43O)C2)C[C@H](O)[C@@H]1O[C@H]1C[C@H](O)[C@H](O[C@H]2C[C@H](O)[C@H](O[C@@H]3C[C@H](CO)[C@@H](O)[C@H](O)[C@H]3O)[C@@H](C)O2)[C@@H](C)O1,29R,plaque count,0.44 µM
O=c1c(O)c(-c2ccc(O)c(O)c2)oc2cc(O)cc(O)c12,TK-,-,<60 µg/mL
Cc1cc(C)c2c(c1)COP(=O)(OC[C@H]1O[C@@H](n3cc(/C=C/Br)c(=O)[nH]c3=O)C[C@@H]1O)O2,B2006 (TK-),plaque count,>128 µg/mL
NC(=O)c1cn([C@@H]2O[C@H](CO)[C@@H](O)[C@@H]2O)c2ncnc(N)c12,KOS,plaque count,8 µM
O=c1[nH]c(=O)n([C@@H]2O[C@@H](CO)C[C@H]2F)cc1Cl,-,-,>40 µM
C[C@H]1O[C@@H](O[C@H]2[C@@H](O)C[C@H](O[C@H]3CC[C@@]4(C)[C@H](CC[C@@H]5[C@@H]4CC[C@]4(C)[C@@H](C6=CC(=O)OC6)CC[C@]54O)C3)O[C@@H]2C)C[C@H](O)[C@@H]1O,KOS,plaque count,0.12 µM
Cc1ccc2c(c1)COP(=O)(OCCOCn1cnc3c(=O)[nH]c(N)nc31)O2,KUPKA,cytopathic effect,0.91 µM
COc1ccc2c(c1)COP(=O)(OC[C@H]1O[C@@H](n3cc(/C=C/Br)c(=O)[nH]c3=O)C[C@@H]1O)O2,B2006 (TK-),plaque count,>128 µg/mL
N#Cc1c(SCCO)nsc1-c1ccccc1,F,plaque count,>5 µg/mL
CCOC(=O)P(=O)(OC)OC[C@H]1O[C@@H](n2cc(CCCl)c(=O)[nH]c2=O)C[C@@H]1O,TK-,cytopathic effect,>68.1 µM
Nc1ccn(C[C@@H](CO)OCP(=O)(O)O)c(=O)n1,KOS,cytopathic effect,6.7 µg/mL
Cc1cn([C@H]2O[C@@H](CO)C[C@H]2F)c(=O)nc1N,-,-,>100 µM
Cc1cccc2c1OP(=O)(OC[C@H]1O[C@@H](n3cc(/C=C/Br)c(=O)[nH]c3=O)C[C@@H]1OC(=O)[C@@H](C)N)OC2,B2006 (TK-),plaque count,>128 µg/mL
CN(C)c1nsc(-c2ccccc2)c1C#N,F,plaque count,>15 µg/mL
Nc1ncnc2c1ncn2[C@@H]1[Se][C@H](CCO)[C@@H](O)[C@H]1O,-,MTT,2.9 µM
Nc1nc2c(ncn2COCCO)c(=O)[nH]1,B2006 (TK-),cytopathic effect,57.7 µM
Cc1cccc2c1OP(=O)(OC[C@H]1O[C@@H](n3cc(/C=C/Br)c(=O)[nH]c3=O)C[C@@H]1OC(=O)[C@@H](N)C(C)C)OC2,KUPKA (TK+),plaque count,0.45 µg/mL
CCOC(=O)CP(=O)(OC)OC[C@H]1O[C@@H](n2cc(I)c(=O)[nH]c2=O)C[C@@H]1O,TK-,cytopathic effect,>57.9 µM
Cc1cc2c(ccc3nc(N)nc(N)c32)[nH]1,KOS,plaque count,8.3 µg/mL
O=C(O)CP(=O)(O)O,KOS,cytopathic effect,22 µg/mL
CC(C)(C)c1cccc2c1OP(=O)(OC[C@H]1O[C@@H](n3cc(/C=C/Br)c(=O)[nH]c3=O)C[C@@H]1O)OC2,B2006 (TK-),plaque count,>128 µg/mL
COP(=O)(CC(=O)O[C@H]1C[C@H](n2cc(CCCl)c(=O)[nH]c2=O)O[C@@H]1CO)OC,BRAND,cytopathic effect,>0.7 µM
C[C@@]1(CO)[C@H](O)CC[C@@]2(C)[C@H]1CC[C@H]1C[C@@H]3C[C@@]12CC[C@]3(O)CO,KOS,plaque count,3 µg/mL
N#Cc1c(N2CCOCC2)nsc1-c1ccccc1,F,plaque count,>1 µg/mL
O=C(O[C@@H]1Cc2c(O)cc(O)cc2O[C@@H]1c1cc(O)c(O)c(O)c1)c1cc(O)c(O)c(O)c1,-,-,0.1 µM
CC(=O)O[C@H]1C[C@H](n2cc(/C=C/Br)c(=O)[nH]c2=O)O[C@@H]1COP1(=O)OCc2cccc(C)c2O1,B2006 (TK-),plaque count,>128 µg/mL
COC(=O)[C@H](C)NP(=O)(OCC1C/C1=C\n1cnc2c(N)ncnc21)Oc1ccccc1,-,plaque count,>10 µM
Cc1ccc(OC(=O)P(=O)(O)O)cc1,C42,plaque count,500 µM
CCOC(=O)CSc1nsc(-c2ccccc2)c1C#N,F,plaque count,>200 µg/mL
O=C(O)Cc1ccc(O)c(O)c1,-,cytopathic effect,>512 µg/mL
CNc1ncnc2c1ncn2[C@H]1O[C@@H](CO)C[C@H]1F,-,-,>100 µM
Nc1nc(N)c2ncn(CCOCP(=O)(O)O)c2n1,KOS,cytopathic effect,3.1 µg/mL
COC(=O)[C@H](C)NP(=O)(OCC1C/C1=C/n1cnc2c(N)ncnc21)Oc1ccccc1,-,plaque count,>1 µM
CCOC(=O)CP(=O)(OC)OC[C@H]1O[C@@H](n2cc(CCCl)c(=O)[nH]c2=O)C[C@@H]1O,TK-,cytopathic effect,>66 µM
C[C@H]1O[C@@H](O[C@H]2CC[C@]3(C=O)[C@H]4CC[C@]5(C)[C@@H](C6=CC(=O)OC6)CC[C@]5(O)[C@@H]4CC[C@]3(O)C2)C[C@H](O)[C@@H]1O,KOS,plaque count,0.08 µM
Nc1ncnc2c1ncn2[C@@H]1O[C@@H](CO)CC1F,-,-,>100 µM
C/C=C1\[C@H](OC2O[C@H](CO)[C@@H](O)[C@H](O)[C@H]2O)OC=C(C(=O)OC)[C@H]1CC(=O)OC,15577,cytopathic effect,83.3 µM
C[C@H]1OC(O[C@H]2[C@@H](O)C[C@H](O[C@@]3(C)[C@@H](O)C[C@H](O[C@H]4CC[C@@]5(C)[C@H](CC[C@@H]6[C@@H]5C[C@@H](O)[C@]5(C)[C@@H](C7=CC(=O)OC7)CC[C@]65O)C4)O[C@@H]3C)O[C@@H]2C)C[C@H](O)[C@@H]1O,29R,plaque count,0.18 µM
N#Cc1c(N)n[nH]c1-c1ccc(F)cc1,KOS,plaque count,3 µg/mL
CCC(C)C(N)C(=O)O[C@H]1C[C@H](n2cc(/C=C/Br)c(=O)[nH]c2=O)O[C@@H]1COP1(=O)OCc2cccc(C)c2O1,B2006 (TK-),plaque count,>128 µg/mL
C/C=C1\[C@H](OC2O[C@H](CO)[C@@H](O)[C@H](O)[C@H]2O)OC=C(C(=O)O)[C@H]1CC(=O)OCC(OCC)c1ccc(O)c(O)c1,15577,cytopathic effect,>200 µM
Nc1nc2c(ncn2COCCOP2(=O)OCc3ccccc3O2)c(=O)[nH]1,B2006 (TK-),cytopathic effect,1.62 µM
O=C(Oc1ccc(Cl)c(Cl)c1)P(=O)(O)O,C42,plaque count,>500 µM
CCSc1nsc(-c2ccccc2)c1C#N,F,plaque count,>100 µg/mL
O=c1ccn([C@@H]2O[C@@H](CO)C[C@H]2F)c(=O)[nH]1,-,-,>100 µM
COC(=O)[C@H](C)NP(=O)(OC[C@H]1C/C1=C/n1cnc2c(=O)[nH]c(N)nc21)Oc1ccccc1,-,plaque count,>100 µM
N/C(=N/O)c1cn([C@H]2C[C@H](O)[C@@H](CO)O2)c2ncnc(N)c12,KOS,plaque count,60 µM
CCOC(=O)P(=O)(O)OC[C@H]1S[C@@H](n2cc(CC)c(=O)[nH]c2=O)C[C@@H]1O,L2/R acyclovir-resistant,cytopathic effect,24.5 µM
O=c1c(O)c(-c2ccc(O)cc2)oc2cc(O)cc(O)c12,TK-,-,2 µg/mL
C[C@H]1O[C@@H](O[C@H]2[C@@H](O)C[C@H](O[C@H]3[C@@H](O)C[C@H](O[C@H]4CC[C@@]5(C)[C@H](CC[C@@H]6[C@@H]5CC[C@]5(C)[C@@H](C7=CC(=O)OC7)CC[C@]65O)C4)O[C@@H]3C)O[C@@H]2C)C[C@H](O)[C@@H]1O,29R,plaque count,0.32 µM
Nc1nc(=O)n([C@H]2O[C@@H](CO)C[C@H]2F)cc1F,-,-,>100 µM
N#Cc1c(N2CCCC2)nsc1-c1ccccc1,F,plaque count,>7 µg/mL
C[C@]12CC[C@H](O)C[C@H]1CC[C@@H]1[C@@H]2C[C@@H](O)[C@]2(C)[C@@H](C3=CC(=O)OC3)CC[C@]12O,KOS,plaque count,3.5 µM
Nc1nc2c(ncn2COCCO)c(=O)[nH]1,KOS,plaque count,3.3 µM
CC/C=C\C/C=C\C/C=C\C/C=C\C/C=C\CCCC(=O)OC(CO[C@H]1O[C@H](CS(=O)(=O)O)[C@@H](O)[C@H](O)[C@H]1O)OC(=O)CCCCCCCCCCCCCCC,-,plaque count,9.1 µg/mL
O=c1[nH]c(=O)n([C@H]2C[C@H](O)[C@@H](CO)O2)cc1I,TK-,cytopathic effect,>8.4 µM
Nc1nc2c(ncn2COCCO)c(=O)[nH]1,Clinical isolate,plaque count,0.42 µM
NC(=O)c1csc([C@@H]2O[C@H](CO)[C@@H](O)[C@H]2O)n1,KOS,cytopathic effect,100 µg/mL
Nc1ncnc2ncn(COCCCl)c12,KOS,cytopathic effect,>128 µg/mL
CC(=O)CCCC(C)(C)C(=O)CC/C(C)=C/CCC1(C)CCC([C@H](C)C(=O)O)OO1,-,plaque count,7.5 µg/mL
CO[C@H]1C[C@H](O[C@H]2CC[C@]3(C=O)[C@H]4CC[C@]5(C)[C@@H](C6=CC(=O)OC6)CC[C@]5(O)[C@@H]4CC[C@]3(O)C2)O[C@H](C)[C@H]1O[C@@H]1O[C@H](CO[C@@H]2O[C@H](CO)[C@@H](O)[C@H](O)[C@H]2O)[C@@H](O)[C@H](O)[C@H]1O,29R,plaque count,0.5 µM
O=c1[nH]c(=O)n([C@H]2C[C@H](O)[C@@H](COP3(=O)OCc4cc(Cl)ccc4O3)O2)cc1/C=C/Br,KUPKA (TK+),plaque count,0.21 µg/mL
Nc1ncnc2c1ncn2[C@@H]1[Se][C@H](CO)[C@@H](O)[C@H]1O,-,MTT,>100 µM
Nc1ccn(C[C@H]2COP(=O)(O)CO2)c(=O)n1,KOS,cytopathic effect,1.45 µg/mL
Cc1cc(O)c2c(c1)C(=O)c1cccc(O)c1C2=O,-,cytopathic effect,>25 µg/mL
N=C(N)c1cn([C@@H]2O[C@H](CO)[C@@H](O)[C@@H]2O)c2ncnc(N)c12,KOS,plaque count,>100 µM
CCOC(=O)P(=O)(O)OCCOCn1cnc2c(=O)[nH]c(N)nc21,L2,cytopathic effect,330.7 µM
Cc1cccc2c1OP(=O)(OCCOCn1cnc3c(=O)[nH]c(N)nc31)OC2,B2006 (TK-),cytopathic effect,0.51 µM
C[C@H]1O[C@@H](O[C@H]2CC[C@@]3(C)[C@H](CC[C@@H]4[C@@H]3CC[C@]3(C)[C@@H](C5=CC(=O)OC5)CC[C@]43O)C2)C[C@H](O)[C@@H]1O,KOS,plaque count,0.14 µM

For reference, 9 entries again:

structure,strain,read by,result
Nc1ccn(C[C@H]2COP(=O)(O)CO2)c(=O)n1,KOS,cytopathic effect,1.45 µg/mL
C[C@H]1O[C@@H](O[C@H]2CC[C@@]3(C)[C@H](CC[C@@H]4[C@@H]3CC[C@]3(C)[C@@H](C5=CC(=O)OC5)CC[C@]43O)C2)C[C@H](O)[C@@H]1O,KOS,plaque count,0.14 µM
N/C(=N/O)c1cn([C@H]2C[C@H](O)[C@@H](CO)O2)c2ncnc(N)c12,KOS,plaque count,60 µM
CCOC(=O)P(=O)(O)OC[C@H]1S[C@@H](n2cc(CC)c(=O)[nH]c2=O)C[C@@H]1O,L2/R acyclovir-resistant,cytopathic effect,24.5 µM
C[C@@]1(CO)[C@H](O)CC[C@@]2(C)[C@H]1CC[C@H]1C[C@@H]3C[C@@]12CC[C@]3(O)CO,KOS,plaque count,3 µg/mL
CCSc1nsc(-c2ccccc2)c1C#N,F,plaque count,>100 µg/mL
Nc1nc(N)c2ncn(CCOCP(=O)(O)O)c2n1,KOS,cytopathic effect,3.1 µg/mL
NC(=O)c1csc([C@@H]2O[C@H](CO)[C@@H](O)[C@H]2O)n1,KOS,cytopathic effect,100 µg/mL
CC/C=C\C/C=C\C/C=C\C/C=C\C/C=C\CCCC(=O)OC(CO[C@H]1O[C@H](CS(=O)(=O)O)[C@@H](O)[C@H](O)[C@H]1O)OC(=O)CCCCCCCCCCCCCCC,-,plaque count,9.1 µg/mL